# PubChem BioAssay AID504761, Drosophila RNAi Screening Center – 2011
# Assay: 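Insect host genes that dengue virus relies on to spread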 (primary screen)
# System: D.Mel-2 cells from Drosophila
# Reagent: long dsRNA against Drosophila genes
# Conditions: infection with dengue virus type 2; dose and infection time not stated
# Measured: 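Cells stained for dengue envelope protein and imaged; percent of infected cells per well on duplicate plates, ranked by infection, with stained nuclei counted for cell number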
# Direction: infection score: higher = more virus-infected cells
# Hit rule: 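Low infection ranks in the two replicates (chance level up to 0.065) followed by a retest with a 1.5-fold or larger significant decrease, p below 0.05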
# Calls: active = confirmed: knock-down lowers infection; inactive = not picked or not confirmed
# In all, the deposit lists about 22,000 reagents; this is a random part of those with a known target gene and a result. Of all reagents, 116 (0.52%) are marked active. 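Calls depend on retest data that are not deposited; infection was ranked per plate without normalising between plates; the unit of the infection score is not given.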 Further read-outs or replicates are left out here. Not given: the amount of reagent, the time to read-out.
gene knocked down,amplicon,"infection score, replicate 1",activity call
Acat2 (GeneID 38147),DRSC08630,3.62,inactive
CG3071 (GeneID 31213),DRSC18526,7.9,inactive
CG3071 (GeneID 31213),DRSC26289,20.4,inactive
CG31638 (GeneID 33910),DRSC02269,1.52,inactive
CG31638 (GeneID 33910),DRSC03259,0.84,inactive
CG31638 (GeneID 33910),DRSC25082,1.1,inactive
dpr6 (GeneID 50296),DRSC09005,7.9,inactive
dpr6 (GeneID 50296),DRSC10162,10.4,inactive
dpr6 (GeneID 50296),DRSC10163,2.97,inactive
futsch (GeneID 5740544),DRSC17688,4.45,inactive
futsch (GeneID 5740544),DRSC17949,0.71,inactive
futsch (GeneID 5740544),DRSC17952,4.92,inactive
futsch (GeneID 5740544),DRSC18543,8.05,inactive
futsch (GeneID 5740544),DRSC26427,4.45,inactive
bi (GeneID 31379),DRSC18742,8.35,inactive
bi (GeneID 31379),DRSC28848,22.4,inactive
CG2712 (GeneID 31267),DRSC18589,14.9,inactive
CG13081 (GeneID 35245),DRSC02185,5.73,inactive
CG12971 (GeneID 40365),DRSC11681,14.9,inactive
CG12971 (GeneID 40365),DRSC23893,6.65,inactive
ND-18 (GeneID 32936),DRSC19441,8.21,inactive
PGRP-SD (GeneID 38858),DRSC10856,3.61,inactive
dpp (GeneID 33432),DRSC00118,16.2,inactive
dpp (GeneID 33432),DRSC00121,1.29,inactive
dpp (GeneID 33432),DRSC00813,11.7,inactive
dpp (GeneID 33432),DRSC26853,7.37,inactive
Jhbp2 (GeneID 40612),DRSC12292,0.98,inactive
CG17290 (GeneID 36938),DRSC06662,33.1,inactive
CG17290 (GeneID 36938),DRSC27119,6.49,inactive
CG1631 (GeneID 33029),DRSC20535,6.79,inactive
Ugt37C2 (GeneID 53513),DRSC02247,20.2,inactive
Gr59b (GeneID 117484),DRSC04179,5.95,inactive
CG9503 (GeneID 32424),DRSC20186,7.94,inactive
CG9503 (GeneID 32424),DRSC21766,8.33,inactive
boi (GeneID 31229),DRSC18425,4.25,inactive
boi (GeneID 31229),DRSC18598,3.45,inactive
boi (GeneID 31229),DRSC25851,6.69,inactive
mRpS17 (GeneID 37872),DRSC04463,3.74,inactive
CG31680 (GeneID 318881),DRSC21878,10.5,inactive
CG12546 (GeneID 40483),DRSC11676,3.94,inactive
Or35a (GeneID 34918),DRSC03389,1.59,inactive
koi (GeneID 35594),DRSC04980,12.9,inactive
alpha4GT1 (GeneID 33512),DRSC00488,4.2,inactive
CG44422 (GeneID 32063),DRSC18885,8.21,inactive
CG44422 (GeneID 32063),DRSC19380,2.34,inactive
CG44422 (GeneID 32063),DRSC23284,0.66,inactive
Mtpbeta (GeneID 37784),DRSC04663,11.6,inactive
ase (GeneID 30985),DRSC18739,1.79,inactive
ChAT (GeneID 42249),DRSC16609,13,inactive
ChAT (GeneID 42249),DRSC22755,3.12,inactive
CG12320 (GeneID 42189),DRSC14498,0.85,inactive
Pgd (GeneID 31185),DRSC18697,1.36,inactive
RpL18 (GeneID 38794),DRSC11016,0.77,inactive
RpL18 (GeneID 38794),DRSC22323,1.27,inactive
CPT2 (GeneID 38355),DRSC08553,7.77,inactive
Slh (GeneID 33434),DRSC00789,2.47,inactive
CG10274 (GeneID 38716),DRSC09716,13.3,inactive
CG10274 (GeneID 38716),DRSC24792,3.67,inactive
